Pooled drug test results. Numbers come from NIAID ChemDB, via PubChem.

All rows: tests in culture; agent: HIV-1; cell line: PBMC; measure: EC50

Lines come from different laboratories, so protocols vary. Blank or dashed fields: not listed here. a–b is a range or a potency band. ECn: concentration that inhibits the pathogen or its effect by n%.

compound | strain | changes | read by | conditions | result
C[C@]12CC[C@H](OS(=O)(=O)O)CC1=CC[C@@H]1[C@@H]2CC[C@]2(C)C(=O)CC[C@@H]12 | LAV | - | RT activity | - | 82.3 µM
[N-]=[N+]=N[C@H]1[C@@H](O)[C@H](n2cnc3c(=O)[nH]c(N)nc32)O[C@@H]1CO | - | - | - | - | 9.03 µM
CC[C@H](C)[C@H](C(=O)O)N1C[C@H](CN2CCC(c3cc(Cc4ccc(OC)c(OC)c4)nn3CC)CC2)[C@@H](c2cccc(F)c2)C1 | BaL | - | p24 | 50% human serum | <0.028 µM
Cc1cn([C@H]2C[C@H](F)[C@@H](CO)O2)c(=O)[nH]c1=O | LAV | - | RT activity | - | 0.002 µM
Cc1ccc(-c2ccc3c(c2)C=C(C(=O)Nc2ccc(C[N+](C)(C)C4CCOCC4)cc2)CCC3)cc1 | Clinical isolate RM | - | - | - | 0.05 µg/mL
CCC(=O)c1ccc(F)c([C@@H]2C[C@@H]2NC(=O)Nc2ccc(C#N)cn2)c1O | 35764-2 | - | absorbance | - | 0.0001 µM
Cc1cn([C@H]2C[C@H](N=[N+]=[N-])[C@@H](CO)O2)c(=O)[nH]c1=O | BAL R5 | - | p24 | - | <10 µM
C[C@@H]1CC[C@H]2[C@@H](C)C(=O)O[C@@H]3OC4(C)CC[C@@H]1[C@]32OO4 | LAV | - | RT activity | - | >100 µM
Cc1cc(C#N)cc(C)c1Oc1nc(Nc2ccc(C#N)cc2)nc(N)c1Br | 92UG029 | - | absorbance | - | 0.0034 µM
Cc1cc2c(C(C)C)c(O)c(O)c(C=Nc3ccc(C(=O)O)cc3)c2c(O)c1-c1c(C)cc2c(C(C)C)c(O)c(O)c(C=Nc3ccc(C(=O)O)cc3)c2c1O | LAV | - | - | - | 47.8 µM
Nc1nc(=O)n([C@@H]2C[Se][C@H](CO)O2)cc1F | BRU(RT-M184V) | RT-M184V | RT activity | - | >50 µM
[N-]=[N+]=NC1=C[C@H](n2ccc(N)nc2=O)O[C@@H]1CO | - | - | - | - | 44.9 µM
Nc1nc2c(ncn2C2CC(/C=C/P(=O)(O)O)(C(F)(F)F)CO2)c(=O)[nH]1 | LAI | - | RT activity | - | 42 µM
C[C@@H]1CC[C@H]2[C@@H](C)CCO[C@@H]3OC4(C)CC[C@@H]1C32OO4 | LAV | - | RT activity | - | 50.2 µM
Cc1c(O)cccc1C(=O)N[C@@H](CSc1ccccc1)[C@H](O)CN1C[C@H]2CCCC[C@H]2C[C@H]1C(=O)NC(C)(C)C | HXB2 | PR-L10R M46I L63P V82T I84V | p24 | - | <0.25 µM
Cc1cn([C@H]2C[C@H](F)[C@@H](CO)O2)c(=O)[nH]c1=O | A(RT-Q151M) | RT-Q151M | antigen | - | 0.0027 µM
C=CCN(C(=O)NCc1ccc(F)c(F)c1)C1CCN([C@H]2CN(C(=O)C3CCCC3)C[C@]2(O)c2ccccc2)CC1 | - | - | p24 / ELISA | - | <0.05 µM
Nc1ncnc2c1ncn2CCOCP(=O)(O)O | LAI | - | - | - | 0.43 µM
O=c1[nH]cnc2c1ncn2[C@H]1CC[C@@H](CO)O1 | HxB2D(RT-D67G) | RT-D67G | p24 | - | 5 µM
C=CCN(C(=O)OCc1ccc(S(=O)ON(C)C)cc1)C1CCN([C@H]2CN(C(=O)C3CCCC3)C[C@]2(O)c2ccccc2)CC1 | - | - | p24 / ELISA | - | <0.005 µM
Cc1cn([C@H]2C[C@H](N=[N+]=[N-])[C@@H](CO)O2)c(=O)[nH]c1=O | LAI | - | - | - | >100 µM
Cc1cc2c(C(C)C)c(O)c(O)cc2c(O)c1-c1c(C)cc2c(C(C)C)c(O)c(O)cc2c1O | LAV | - | - | - | 0.82 µM
CCc1cn([C@H]2C[C@H](N=[N+]=[N-])[C@@H](CO)O2)c(=O)[nH]c1=O | LAV | - | RT activity | - | <0.1 µM
CC(C)=CCN1Cc2cccc3[nH]c(=S)n(c23)C[C@@H]1C | Group O isolate | - | RT activity | - | 5.4 µM
[N-]=[N+]=N[C@H]1[C@@H](O)[C@H](n2cnc3c(N)ncnc32)O[C@@H]1CO | - | - | - | - | 13.9 µM
CC(C)Nc1cccnc1N1CCN(C(=O)c2cc3cc(NS(C)(=O)=O)ccc3[nH]2)CC1 | NRTI resistant (RT L74V M41L V106A T215Y) MDR | RT-L74V M41L V106A T215Y | p24 | - | 0.4 µM
C=CCN(C(=O)OCc1ccc(C(F)(F)F)cc1)C1CCN([C@H]2CN(C(=O)C3CCCC3)C[C@]2(O)c2ccccc2)CC1 | - | - | p24 / ELISA | - | <0.099 µM
O=c1[nH]cnc2c1ncn2[C@H]1CC[C@@H](CO)O1 | HXB2D (RT-K65R) | RT-K65R | p24 | - | 26.8 µM
Cc1cn([C@H]2C[C@H](N=[N+]=[N-])[C@@H](CO)O2)c(=O)[nH]c1=O | LAV-1 | - | RT activity | - | 0.004 µM
Cc1c(O)cccc1C(=O)N[C@@H](CSc1ccccc1)[C@H](O)CN1C[C@H]2CCCC[C@H]2C[C@H]1C(=O)NC(C)(C)C | IIIB Subtype B | - | p24 | - | 0.0033 µM
Cc1c(-c2c(C)c(=O)c3c(C(C)C)c(=O)c(=O)c(C=O)c-3c2=O)c(O)c2c(C=O)c(O)c(O)c(C(C)C)c2c1O | LAV | - | - | - | 0.86 µM
OO | BaL | - | RT activity | - | >10 µM
Cc1cn([C@H]2C[C@H](N=[N+]=[N-])[C@@H](CO)O2)c(=O)[nH]c1=O | IIIB | - | p24 | - | 0.02 µM
CC(C)Nc1cccnc1N1CCN(C(=O)c2cc3cc(N)ccc3[nH]2)CC1 | D34 | - | p24 | - | 0.055 µM
Cc1cn([C@H]2C=C[C@@H](CO)O2)c(=O)[nH]c1=O | LTLV-IIIB | - | p24 | - | 0.018 µM
C=CCN(C(=O)NCc1ccc(F)c(F)c1)C1CCN(C[C@H]2CN(C(=O)C3CCCC3)C[C@]2(O)c2ccccc2)CC1 | - | - | p24 | - | 0.006–0.05 µM
Cc1cn([C@@H]2C[C@@H](N)[C@H](CO)O2)c(=O)[nH]c1=O | LAV | - | RT activity | - | >100 µM
CN[C@@H]1[C@H](O[C@@H]2OC[C@@H](O)[C@H](O)[C@H]2O)[C@@H](O)[C@H](O[C@H]2c3cc(C)c(C(=O)N[C@H](C)C(=O)O)c(O)c3-c3c(cc4c(c3O)C(=O)c3cc(OC)cc(O)c3C4=O)[C@@H]2O)O[C@@H]1C | UG273 R5 CLADE A | - | p24 | - | 2.2 µg/mL
Cc1cccc(C)c1OCC(=O)N[C@@H](Cc1ccccc1)[C@@H](O)C[C@H](Cc1ccccc1)NC(=O)[C@H](C(C)C)N1CCCNC1=O | HXB2 | PR-M46I L63P A71V V82F I84V | p24 | - | <0.54 µM
Nc1ccn([C@H]2CO[C@@H](CO)S2)c(=O)n1 | HXB2D | - | p24 | - | 0.3 µM
O=C(NC(=S)Nc1ccc(Br)cn1)c1ccccc1[N+](=O)[O-] | ERS104pre | - | p24 / luminescence | - | 0.32 µM
Cc1cn([C@H]2C[C@H](N=[N+]=[N-])[C@@H](CO)O2)c(=O)[nH]c1=O | AZT RT-MDR | RT M41L L74V T215Y V106N | p24 | - | >10 µM
Cc1cn([C@H]2C=C[C@@H](CO)O2)c(=O)[nH]c1=O | HXB2D | - | p24 | - | 0.42 µM
Cc1cn([C@H]2C=C[C@@H](CO)O2)c(=O)[nH]c1=O | IIIB Subtype B | - | p24 | - | 0.056 µM
CC(=O)N1CCC(C(=O)N(CCCN2CCC(Cc3ccc(C(N)=O)cc3)CC2)c2ccc(C)c(Cl)c2)CC1 | JR-FL R5 | - | p24 | 20% FBS | 0.00064 µM
Nc1nc(=O)n([C@H]2CS[C@@H](CO)O2)cc1F | LAI | - | RT activity | - | 0.03 µM
Cc1cn([C@H]2C[C@H](N=[N+]=[N-])[C@@H](CO)O2)c(=O)[nH]c1=O | Clinical isolate | - | p24 / RT activity | clinical isolate | 0.00163 µM
CC(=O)O[C@@]12C[C@@H](C)[C@@]3(O)[C@@H](C=C(CO)C[C@]4(O)C(=O)C(C)=C[C@@H]34)[C@@H]1C2(C)C | KM018 | - | p24 / ELISA | - | 0.948 µM
Nc1nc(=O)n([C@@H]2CO[C@H](CO)S2)cc1F | HXB2D | - | p24 | - | 1.4 µM
CC(=O)c1ccc(C)cc1NC(C(N)=O)c1c(Cl)cccc1Cl | IIIB | - | cytopathic effect / MTT | - | 0.122 µM
O=C(O)[C@@H](CC1CCC1)N1C[C@H](CN2CCC(CCCc3ccccc3)CC2)[C@@H](c2ccccc2)C1 | BaL | - | - | - | <0.008 µM
Nc1nc(=O)n([C@H]2CS[C@@H](CO)O2)cc1F | LAI | - | - | - | 0.84 µM
COC(=O)N[C@H](C(=O)N[C@@H](Cc1ccccc1)[C@@H](O)CN(Cc1ccc(-c2ccccn2)cc1)NC(=O)[C@@H](NC(=O)OC)C(C)(C)C)C(C)(C)C | - | L10I K14R L33I M36I M46I F53I K55R I62V L63P A71V G73S V82A L90M I93L | p24 / luciferase | clinical isolate, multidrug-resistant | 0.45 µg/mL
Cc1cn([C@@H]2C=C[C@H](CO)O2)c(=O)[nH]c1=O | LAV | - | RT activity | - | >100 µM
Cc1cn([C@H]2C[C@H](N=[N+]=[N-])[C@@H](CO)O2)c(=O)[nH]c1=O | 8890 CLADE C CLADE C | - | p24 | - | 0.006 µM
Cc1cn([C@H]2C[C@H](N=[N+]=[N-])[C@@H](CO)O2)c(=O)[nH]c1=O | LAI | - | RT activity | - | 0.026 µM
Cc1ccc(-c2ccc3c(c2)C=C(C(=O)Nc2ccc(C[N+](C)(C)C4CCOCC4)cc2)CCC3)cc1 | BaL | - | p24 | - | 0.0136 µM
Nc1ncnc2c1ncn2CCOCP(=O)(O)O | HXB2D | - | p24 | - | 0.8 µM
COC(=O)C(CO)N=Cc1c(O)c(O)c(C(C)C)c2cc(C)c(-c3c(C)cc4c(C(C)C)c(O)c(O)c(C=NC(CO)C(=O)OC)c4c3O)c(O)c12 | LAV | - | - | - | 2.2 µM
O=C(C1CCCC1)N1C[C@H](CN2CCC(N3CC=CN(Cc4ccc(C(F)(F)F)cc4)C3=O)CC2)[C@@](O)(c2ccccc2)C1 | - | - | p24 | - | >0.1 µM
CC(C)C(N[C@@H](Cc1ccccc1)[C@@H](O)[C@H](O)[C@H](Cc1ccccc1)NC(C(=O)OCc1ccccc1)C(C)C)C(=O)OCc1ccccc1 | NL4-3 | - | p24 | - | 0.1 µM
CCC[C@@]1(CCc2ccccc2)CC(O)=C([C@H](CC)c2cccc(NS(=O)(=O)c3ccc(C(F)(F)F)cn3)c2)C(=O)O1 | Clinical isolate | PR-L10L/I K20R M36I I54V A71I/V V82A I84I/V L90M | p24 | - | 0.268 µM
Cc1cc(Cl)nc(C)c1C(=O)NCC[C@@H](C)N1CCC(N(Cc2ccsc2)C(=O)Nc2ccc(C(O)O)cc2)CC1 | BaL | - | p24 / ELISA | - | 0.0069 µM
Nc1ncnc2c1ncn2C1CC(/C=C/P(=O)(O)O)(C(F)(F)F)CO1 | LAI | - | RT activity | - | 48 µM
Cc1cn([C@@H]2C[C@@H](N=[N+]=[N-])[C@H](CO)O2)c(=O)[nH]c1=O | LAV | - | RT activity | - | >100 µM
CCn1nc(Cc2ccc(C#N)cc2)cc1C1CCN(C[C@H]2CN([C@@H](C(=O)O)C(C)(C)C)C[C@@H]2c2cccc(F)c2)CC1 | BaL | - | p24 | - | <0.0019 µM
Cc1cn([C@H]2C[C@H](N=[N+]=[N-])[C@@H](CO)O2)c(=O)[nH]c1=O | LAV | - | RT activity | - | 0.01 µM
Cc1cn([C@H]2C[C@H](N=[N+]=[N-])[C@@H](CO)O2)c(=O)[nH]c1=O | LAI | - | - | - | 0.008 µM
C=CCN(C(=O)NCc1ccc(S(=O)(=O)N(C)C)cc1)C1CC2CCC(C1)N2C[C@H]1CN(C(=O)c2ccc[nH]2)C[C@]1(O)c1cccc(F)c1 | - | - | p24 | - | <0.005 µM
Cn1c(=O)c(C(=O)NCCO)c(O)c2ncc(Cc3ccc(F)cc3)cc21 | BaL | - | RT activity | - | 0.0019 µM
Cc1ccnc2c1NC(=O)c1cccnc1N2C1CC1 | NRTI resistant (RT L74V M41L V106A T215Y) MDR | RT-L74V M41L V106A T215Y | p24 | - | 5 µM
Cc1cn([C@H]2C[C@H](N=[N+]=[N-])[C@@H](CO)O2)c(=O)[nH]c1=O | HXB2 | - | p24 | - | 0.013 µM
Nc1ccn([C@H]2CC[C@@H](CO)O2)c(=O)n1 | JR-CSF | - | p24 | - | 0.025 µM
CN=C1CN=C(c2ccc[nH]2)c2cc(Cl)ccc2N1 | IIIB | - | p24 | - | 1.8 µM
CCCCN1C(=O)[C@@H]([C@H](O)C2CCCCC2)NC(=O)C12CCN(Cc1ccc(Oc3ccc(C(=O)O)cc3)cc1)CC2 | JR-FL R5 | - | p24 | - | 0.0002 µM

Again, the opening 10 rows:

compound	strain	changes	read by	conditions	result
C[C@]12CC[C@H](OS(=O)(=O)O)CC1=CC[C@@H]1[C@@H]2CC[C@]2(C)C(=O)CC[C@@H]12	LAV	-	RT activity	-	82.3 µM
[N-]=[N+]=N[C@H]1[C@@H](O)[C@H](n2cnc3c(=O)[nH]c(N)nc32)O[C@@H]1CO	-	-	-	-	9.03 µM
CC[C@H](C)[C@H](C(=O)O)N1C[C@H](CN2CCC(c3cc(Cc4ccc(OC)c(OC)c4)nn3CC)CC2)[C@@H](c2cccc(F)c2)C1	BaL	-	p24	50% human serum	<0.028 µM
Cc1cn([C@H]2C[C@H](F)[C@@H](CO)O2)c(=O)[nH]c1=O	LAV	-	RT activity	-	0.002 µM
Cc1ccc(-c2ccc3c(c2)C=C(C(=O)Nc2ccc(C[N+](C)(C)C4CCOCC4)cc2)CCC3)cc1	Clinical isolate RM	-	-	-	0.05 µg/mL
CCC(=O)c1ccc(F)c([C@@H]2C[C@@H]2NC(=O)Nc2ccc(C#N)cn2)c1O	35764-2	-	absorbance	-	0.0001 µM
Cc1cn([C@H]2C[C@H](N=[N+]=[N-])[C@@H](CO)O2)c(=O)[nH]c1=O	BAL R5	-	p24	-	<10 µM
C[C@@H]1CC[C@H]2[C@@H](C)C(=O)O[C@@H]3OC4(C)CC[C@@H]1[C@]32OO4	LAV	-	RT activity	-	>100 µM
Cc1cc(C#N)cc(C)c1Oc1nc(Nc2ccc(C#N)cc2)nc(N)c1Br	92UG029	-	absorbance	-	0.0034 µM
Cc1cc2c(C(C)C)c(O)c(O)c(C=Nc3ccc(C(=O)O)cc3)c2c(O)c1-c1c(C)cc2c(C(C)C)c(O)c(O)c(C=Nc3ccc(C(=O)O)cc3)c2c1O	LAV	-	-	-	47.8 µM